Experimental data: doi:10.1101/2024.04.02.587325
The exact form of at least one protein or probe is not confirmed. At least one verdict rests on a figure or table, not on a statement of the authors.

How the values were obtained:
[1] = molecular target: MexR (Pseudomonas aeruginosa) (UniProt P52003); test: SEC-MALS-RI; conditions: complex 98 kDa, 4 MexR : 1 dsDNA
[2] = molecular target: MexR (Pseudomonas aeruginosa) (UniProt P52003); test: SAXS; conditions: rigid-body models, ~30 degree DNA bend in linker (Model 3)

AAATGTGGTTGATCCAGTCAACTATTTTGCTTATTTTAGTTGACCTTATCAACCTTGTTT (double strand) [60 bp mexR-mexA operator DNA (PI+PII)]
binding result [1]: binds | binding result [2]: binds
